Inhibition data for 84 compounds are collected here from PubChem BioAssay AID1800 (The Scripps Research Institute Molecular Screening Center, 2009).

A word on the inhibition: it is the change of the read-out against control, counted positive when it falls.

This is a selection; strong and weak results do not stand in their true shares. Active and inactive are the calls of the source.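 Rule for the calls: active = inhibition above the mean of all tested compounds plus 3 SD, set per campaign (cut at about 35% in these data); inactive = the rest.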

The test system of this experiment is Hepatitis C virus NS3 helicase. Put plainly: HCV NS3 DNA unwinding blockers – biochemical, Cy5 molecular beacon fluorescence, primary screen (AID 1800).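 Note: 0% = DMSO wells and 100% = thioflavine S control wells.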 Particulars: at 10.9 µM, stronger effect = higher value. The method in brief:
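Measured by: Cy5 fluorescence, 0 and 60 min reads / Assay system: NS3 helicase fragment of HCV / Control set: low DMSO, high thioflavine S at 110 µM / Times: 1 h reaction at 25 °C, ATP-initiated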
`Cc1cc(C)cc(OP(C)(=O)Nc2cccc(C(F)(F)F)c2)c1` (centres undefined): the inhibition was inactive: -1.73%. To `COc1ccccc1OP(C)(=O)Nc1ccc(C)c(C)c1` (centres undefined) belongs inactive: -10.2%; to `COc1ccc(OP(C)(=O)Nc2ccccc2Br)cc1` (centres undefined), inactive: 4.67%; to `Cc1nc2ccc3ccccc3c2o1.O=[N+]([O-])c1cc([N+](=O)[O-])c(O)c([N+](=O)[O-])c1`, inactive: -17.1%. To `CP(=O)(OCCOc1ccccc1)OCCOc1ccccc1` belongs inactive: -2.68%; to `CP(=O)(Nc1ccc(Cl)cc1Cl)Oc1ccccc1` (centres undefined), inactive: 2.06%. For `COc1ccccc1OP(C)(=O)Nc1ccc(Br)cc1` (centres undefined) the value was inactive: -4.8%; for `COc1ccc(OP(C)(=O)Nc2ccccn2)cc1` (centres undefined), inactive: 3.47%; for `CN(C)CCOC(=O)C(O)(c1ccccc1)C1CCCC1` (centres undefined), inactive: -1.39%. Consider `O=[N+]([O-])c1cc([N+](=O)[O-])c(Nc2ccccn2)c([N+](=O)[O-])c1`, for which the inhibition was inactive: -3.99%. As to `Cc1c(NP(C)(=O)Oc2ccc(C(C)C)cc2)c(=O)n(-c2ccccc2)n1C` (centres undefined), the inhibition is inactive: 0.86%. To `COc1ccccc1OP(C)(=O)Nc1ccc(C)cc1C` (centres undefined) belongs inactive: -8.43%. To `CP(=O)(Nc1ccccn1)Oc1ccccc1` (centres undefined) belongs inactive: 1.82%; to `CCc1ccc(OP(C)(=O)O)cc1`, inactive: 7.9%; to `COc1ccc(OP(C)(=O)Nc2ccc(Br)cc2)cc1` (centres undefined), inactive: 7.85%.

In the case of `CCN(CC)CC(O)COC(=O)C(O)(c1ccccc1)C1CCCCC1` (centres undefined), the inhibition is inactive: -1.68%.

With `O=C(OCCCN1CCCC1)C(O)(c1ccccc1)C1CCCCC1` (centres undefined), the inhibition was inactive: -16.6%. To `COc1ccccc1OP(C)(=O)Nc1c(C)n(C)n(-c2ccccc2)c1=O` (centres undefined) belongs inactive: 10.6%; to `CCc1ccc(OP(C)(=O)Nc2cccnc2)cc1` (centres undefined), inactive: 4.55%; to `CP(=O)(Oc1ccccc1)N1CCOC1=O` (centres undefined), inactive: 2.31%. For `CC(C)(C)c1ccc(OP(C)(=O)O)cc1` the value was inactive: -0.51%; for `COc1ccccc1OP(C)(=O)Nc1ccccc1Br` (centres undefined), inactive: -3.99%. For `CP(=O)(Nc1ccc(Cl)cc1)Oc1ccc(F)cc1` (centres undefined) the value was inactive: 3.77%; for `CN(C)C(=O)c1c([N+](=O)[O-])cc([N+](=O)[O-])cc1[N+](=O)[O-]`, inactive: 13.2%.

`CCOC(=O)c1ccc(NP(C)(=O)Oc2ccc(Cl)cc2)cc1` (centres undefined): the inhibition was inactive: -11.6%. To `CP(=O)(OC12CC3CC(CC(C3)C1)C2)OC12CC3CC(CC(C3)C1)C2` belongs inactive: -9.65%.

Take `COc1ccc(OP(C)(=O)Nc2cccc(Br)c2)cc1` (centres undefined): the inhibition is inactive: 4.27%. As to `CN(C)CCOC(=O)C(O)(c1ccccc1)C1CCCCC1` (centres undefined), the inhibition was inactive: 1.56%.

With `COc1ccc(NP(C)(=O)Oc2ccccc2OC)cc1` (centres undefined), the inhibition was inactive: 3.45%. To `O=[N+]([O-])c1ccc(OP2(=O)COCCO2)cc1` (centres undefined) belongs inactive: -2.2%; to `O=[N+]([O-])c1cc([N+](=O)[O-])c(NCC2CCS(=O)(=O)C2)c([N+](=O)[O-])c1` (centres undefined), inactive: 10.8%; to `Cc1cc(-c2cccc3ccccc23)c(C)cn1.O=[N+]([O-])c1cc([N+](=O)[O-])c(O)c([N+](=O)[O-])c1`, inactive: 1.88%. On to `CP(=O)(Nc1ccc(SC(F)(F)F)cc1)Oc1ccc(F)cc1` (centres undefined), for which the inhibition was inactive: -7.13%. For `CCOP(C)(=S)SCC(=O)NC(C)(CC)C(=O)O` (centres undefined) the value was inactive: 9.56%; for `CP(=O)(Nc1ccc2c(c1)OCCO2)Oc1ccccc1` (centres undefined), inactive: -9.18%. To `Cc1ccccc1NP(C)(=O)Nc1ccccc1C` belongs inactive: -6.99%; to `CP(=O)(Nc1ccccc1F)Oc1ccccc1` (centres undefined), inactive: 5.92%; to `CC(C)c1ccc(OP(C)(=O)Nc2ccc(SC(F)(F)F)cc2)cc1` (centres undefined), inactive: -8.44%. Turning to `O=C(OC1CN2CCC1CC2)c1ccc([N+](=O)[O-])cc1` (centres undefined), the inhibition was inactive: 5.61%.

With `O=C(OCCN1CCN(CCOCc2ccccc2)CC1)C(O)(c1ccccc1)c1ccccc1`, the inhibition is inactive: -36.7%. To `CCOC(=O)c1ccc(NP(C)(=O)Oc2ccc(F)cc2)cc1` (centres undefined) belongs inactive: -7.37%; to `COc1ccc(OP(C)(=O)Nc2ccc(SC(F)(F)F)cc2)cc1` (centres undefined), inactive: -1.27%. To `CCN(CC)CCCOC(=O)C(O)(c1ccccc1)C1CCCCC1` (centres undefined) belongs inactive: -0.09%. To `CP(=O)(Nc1ccccc1)Oc1ccc(F)cc1` (centres undefined) belongs inactive: -7.15%.

For `O=[N+]([O-])c1cc([N+](=O)[O-])c(OC2CCCCC2O)c([N+](=O)[O-])c1` (centres undefined), the inhibition was inactive: 8.92%. To `CCCCCOc1ccc(NP(C)(=O)Oc2ccc(Cl)cc2Cl)cc1` (centres undefined) belongs inactive: 20.9%.

On to `O=C(O)c1cccc(Nc2c([N+](=O)[O-])cc([N+](=O)[O-])cc2[N+](=O)[O-])c1`, for which the inhibition is inactive: 18.8%. As for `CC1=NCCc2c1[nH]c1ccccc21.O=[N+]([O-])c1cc([N+](=O)[O-])c(O)c([N+](=O)[O-])c1`, the inhibition is inactive: -73.5%. To `COc1ccccc1OP(C)(=O)Nc1cccc(Br)c1` (centres undefined) belongs inactive: 13.9%. To `CCOC(=O)c1ccc(NP(C)(=O)Oc2cc(C)cc(C)c2)cc1` (centres undefined) belongs inactive: -9.15%; to `Cc1cc(C)cc(OP(C)(=O)Nc2ccc(C)cc2C)c1` (centres undefined), inactive: -9.89%; to `Cc1ccc(C)c(NP(C)(=O)Oc2ccccc2)c1` (centres undefined), inactive: 2.37%. On to `CP(=O)(Nc1cccc(Br)c1)Oc1ccccc1` (centres undefined), for which the inhibition was inactive: -10.9%. For `Cc1cc(C)cc(OP(C)(=O)Nc2ccccn2)c1` (centres undefined) the value was inactive: 6.21%; for `O=[N+]([O-])c1cc([N+](=O)[O-])c(-n2nnc3ccccc32)c([N+](=O)[O-])c1`, inactive: 2.6%.

With `Cc1nc2ccc3ccccc3c2s1.O=[N+]([O-])c1cc([N+](=O)[O-])c(O)c([N+](=O)[O-])c1`, the inhibition was inactive: 2.39%.

Regarding `CCOC(=O)C(CC)C1=NC(C)(C)Cc2ccccc21.O=[N+]([O-])c1cc([N+](=O)[O-])c(O)c([N+](=O)[O-])c1` (centres undefined), the inhibition was inactive: -0.24%. For `O=[N+]([O-])c1cc([N+](=O)[O-])c(Nc2nnnn2CCO)c([N+](=O)[O-])c1` the value was inactive: -5.36%; for `CN1CCCCC1COC(=O)C1(O)c2ccccc2CCc2ccccc21` (centres undefined), inactive: -7.52%; for `COc1ccccc1OP(C)(=O)Nc1c(C)cccc1C` (centres undefined), inactive: -2.64%. `CP(=O)(Nc1ccc(SC(F)(F)F)cc1)Oc1ccccc1` (centres undefined): the inhibition is inactive: 3.58%.

In the case of `CCCOc1ccc(NP(C)(=O)Oc2ccc(Cl)cc2)cc1` (centres undefined), the inhibition was inactive: -10.5%. To `CP(=S)(Nn1cnnc1)Oc1ccccc1` (centres undefined) belongs inactive: -7.42%. For `CP(=O)(Nc1ccccc1Br)Oc1ccccc1` (centres undefined) the value was inactive: -9.8%; for `COc1ccccc1OP(C)(=O)Nc1ccccc1` (centres undefined), inactive: 4.76%. For `CP(=O)(Oc1ccccc1)OC(c1ccccc1)C(F)(F)F` (centres undefined) the value was inactive: -0.11%; for `CP(=O)(Nc1ccc(SC(F)(F)F)cc1)Oc1ccc(Cl)cc1` (centres undefined), inactive: -16.2%. With `Cc1cccc(C)c1OP(C)(=O)Nc1ccc(SC(F)(F)F)cc1` (centres undefined), the inhibition is inactive: -3.94%.

As for `Cc1cc(C)cc(OP(C)(=O)Nc2ccc(SC(F)(F)F)cc2)c1` (centres undefined), the inhibition was inactive: -3.55%. For the compound `CCc1ccc(OP(C)(=O)N2CCN(c3ccc([N+](=O)[O-])cc3)CC2)cc1` (centres undefined), the inhibition was inactive: -4.65%. For `CP(=O)(NC(=O)Nc1ccccc1)Oc1ccccc1` (centres undefined) the value was inactive: -0.28%; for `CCOC(=O)c1ccc(NP(C)(=O)Oc2ccc(OC)cc2)cc1` (centres undefined), inactive: -11.9%. For `CCOP(C)(=S)SCC(=O)NC(C)C(=O)O` (centres undefined) the value was inactive: 2.02%. To `CP(=O)(Nc1ccccn1)Oc1ccc(Cl)cc1` (centres undefined) belongs inactive: -1.32%; to `CCN(CC)CCCOC(=O)C(O)(c1ccccc1)c1ccccc1`, inactive: -4.35%; to `O=[N+]([O-])c1ccc2c(c1)C=Nc1ccccc1O2`, inactive: -21.4%. With `Cc1cccc(C)c1OP(C)(N)=O` (centres undefined), the inhibition is inactive: -3.19%. To `CC(C)(C)c1ccc(OP(C)(=O)Nc2ccc(SC(F)(F)F)cc2)cc1` (centres undefined) belongs inactive: -9.4%; to `Cc1ccc(NP(C)(=O)Oc2ccccc2)c(C)c1` (centres undefined), inactive: -9.51%. For `COc1ccccc1OP(C)(=O)Nc1ccc(C)cc1` (centres undefined) the value was inactive: 2.12%; for `CCOC(=O)c1ccc(NP(C)(=O)Oc2ccccc2)cc1` (centres undefined), inactive: -1.15%; for `Cc1cc(C)cc(OP(C)(N)=O)c1` (centres undefined), inactive: 12.8%. To `COc1ccc(OP(C)(=O)Nc2cccc(F)c2)cc1` (centres undefined) belongs inactive: 0.18%; to `COc1ccccc1OP(C)(=O)Nc1cc(Cl)ccc1C` (centres undefined), inactive: 5.12%.
